Compound potency records, mixed from different reports. Data source: NIAID ChemDB in PubChem.

All rows: whole-cell or culture tests; species: HIV-1; method: luciferase / reporter gene; measure: EC50

Two numbers with a dash give a range or band.

SMILES	strain or isolate	cell line	result
CC1CN(C(=O)c2ccccc2)CCN1C(=O)C(=O)c1ccc2cc(F)ccc2n1		HeLa	<1 µM
C=CCC(C(=O)O)c1c(C)nc2ccc(Cl)cc2c1-c1ccc(Cl)cc1		C8166	<20 µM
C[C@@H]1CN(C(=O)c2ccccc2)CCN1C(=O)C1(c2ccc3ccccc3c2)CC1		HeLa	<1 µM
CCOC(=O)CCCNC(=O)Nc1cccc2c(C(=O)C(=O)N3CCC(=C(C#N)c4ccccc4)CC3)c[nH]c12		HeLa	<1 µM
Cc1ccc(S(=O)(=O)N2CCC3(CC2)OCCn2c3nc(C(=O)NCc3ccc(F)cc3-n3cnc(C)n3)c(O)c2=O)cc1	NL4-3	MT-2	0.001–0.01 µM
CNC(CC(=O)Nc1cccc2c(C(=O)C(=O)N3CCN(C(=O)c4ccccc4)C[C@H]3C)c[nH]c12)C(=O)O		HeLa	<1 µM
C[C@@H]1CN(C(=O)c2ccccc2)CCN1C(=O)C(=O)c1ccc2ccccc2n1		HeLa	<1 µM
Cc1ccc(S(=O)(=O)N2CCC3(CC2)OCCn2c3nc(C(=O)NCc3ccc(F)cc3S(=O)(=O)N3CCOCC3)c(O)c2=O)cc1	NL4-3	MT-2	0.001–0.01 µM
CC(=O)[C@@H](C)OC(C(=O)O)c1c(C)nc2ccc(Br)cc2c1-c1ccc(Cl)cc1		C8166	<20 µM
C[C@@H]1CN(C(=O)c2ccccc2)CCN1C(C#N)C(=O)c1cnc2ccccc2n1		HeLa	<1 µM
C=Cc1ccc(-c2c(C(OC(C)C)C(=O)O)c(C)nc3ccc(Cl)cc23)cc1		C8166	<20 µM
CS(=O)(=O)N1CCC2(C1)OCCn1c2nc(C(=O)NCc2ccc(F)cc2)c(O)c1=O	NL4-3	MT-2	0.01–0.1 µM
Cc1ccc(S(=O)(=O)Nc2cccc3c(C(=O)C(=O)N4CCN(C(=O)c5ccccc5)C[C@H]4C)c[nH]c23)cc1		HeLa	1–5 µM
Cc1ccc(S(=O)(=O)N2CCC3(CC2)OCCn2c3nc(C(=O)NCc3ccc(F)cc3-n3nc(C)nc3C)c(O)c2=O)cc1	NL4-3	MT-2	0.001–0.01 µM
COc1ccc2cc(CC(=O)N3CCN(C(=O)c4ccccc4)CC3)ccc2c1		HeLa	<1 µM
Cc1nc2ccc(Cl)cc2c(-c2ccc(C(C)(F)F)cc2)c1C(OC(C)C)C(=O)O		C8166	<20 µM
N#CC(=C1CCN(C(=O)C(=O)c2c[nH]c3c(NC(=O)Nc4ccc(S(=O)(=O)O)cc4)cccc23)CC1)c1ccccc1		HeLa	<1 µM
O=C(NCc1ccc(F)cc1S(=O)(=O)N1CCOCC1)c1nc2n(c(=O)c1O)CCCOC21CCN(C(=O)OCc2ccccc2)CC1	NL4-3	MT-2	0.01–0.1 µM
CCCc1ccc(-c2c(C(O[C@H](C)CC)C(=O)O)c(C)nc3ccc(Cl)cc23)cc1		C8166	<20 µM
C[C@@H]1CN(C(=O)c2ccccc2)CCN1C(=O)C(C)(O)c1ccc2ccccc2c1		HeLa	1–5 µM
Cc1ccc(S(=O)(=O)N2CCC3(CC2)OCCn2c3nc(C(=O)NCc3ccc(F)cc3-n3cncn3)c(O)c2=O)cc1	NL4-3	MT-2	0.001–0.01 µM
COc1cccc2nc(C(=O)C(=O)N3CCN(C(=O)c4ccccc4)CC3C)ccc12		HeLa	<1 µM
CCc1ccc(-c2c(C(OC3(C)CCCCC3)C(=O)O)c(C)nc3ccc(Cl)cc23)cc1		C8166	<20 µM
Cc1ncn(-c2cc(F)ccc2CNC(=O)c2nc3n(c(=O)c2O)CCOC32CCN(S(=O)(=O)c3cc(F)ccc3C)CC2)n1	NL4-3	MT-2	0.001–0.01 µM
CC(=O)Nc1ccc(F)c2c(C(=O)C(=O)N3CC/C(=C(\C#N)c4cccnc4)CC3C)c[nH]c12		HeLa	<1 µM
C[C@@H]1CN(C(=O)c2ccccc2)CCN1C(=O)C(=O)c1ccc2cc(C(=O)O)ccc2c1		HeLa	<1 µM
CCOC(=O)CCCCCNC(=O)Nc1cccc2c(C(=O)C(=O)N3CCC(=C(C#N)c4ccccc4)CC3)c[nH]c12		HeLa	<1 µM
COc1ccc2cc([C@H](C)C(=O)N3CCN(C(=O)c4ccccc4)C[C@H]3C)ccc2c1		HeLa	1–5 µM
CCCC(C(=O)O)c1c(C)nc2ccc(Cl)cc2c1-c1cccs1		C8166	<20 µM
CCOC(=O)C(=O)N1CCC2(C1)OCCn1c2nc(C(=O)NCc2ccc(F)cc2)c(O)c1=O	NL4-3	MT-2	0.01–0.1 µM
COc1ccc(-c2c([C@H](OC(C)C)C(=O)O)c(C)nc3ccc(Cl)cc23)cc1		C8166	<20 µM
O=C(NCc1ccc(F)cc1N1CCCCS1(=O)=O)c1nc2n(c(=O)c1O)CCCOC21CCN(C(=O)OCc2ccccc2)CC1	NL4-3	MT-2	0.001–0.01 µM

2 of the rows above, restated:

| SMILES | strain or isolate | cell line | result |
|---|---|---|---|
| Cc1ccc(S(=O)(=O)N2CCC3(CC2)OCCn2c3nc(C(=O)NCc3ccc(F)cc3-n3cnc(C)n3)c(O)c2=O)cc1 | NL4-3 | MT-2 | 0.001–0.01 µM |
| Cc1ncn(-c2cc(F)ccc2CNC(=O)c2nc3n(c(=O)c2O)CCOC32CCN(S(=O)(=O)c3cc(F)ccc3C)CC2)n1 | NL4-3 | MT-2 | 0.001–0.01 µM |

ECn: concentration that inhibits the pathogen or its effect by n%. Rows are shuffled and stem from different studies. An empty or dashed field is not shown.